Key:
P. falciparum K1 = assay: In vitro 3H-hypoxanthine incorporation assay, erythrocytic stages, K1 strain; assay type: cell-based, Plasmodium falciparum; details: selectivity index, L-6 cells vs P.f. K1
Protocol: (§1) Chloroquine (Sigma C6628) was used as standard. […] Serial drug dilutions of 11 3-fold dilution steps covering a range from 100 to 0.002 μg/mL were prepared. The 96-well plates were incubated in a humidified atmosphere at 37 °C; 4% CO2, 3% O2, 93% N2. […] The plates were incubated for a further 24 h under the same conditions. The plates were then harvested with a Betaplate cell harvester (Wallac, Zurich, Switzerland). The red blood cells were transferred onto a glass fiber filter and washed with distilled water. The dried filters were inserted into a plastic foil with 10 mL of scintillation fluid and counted in a Betaplate liquid scintillation counter (Wallac, Zurich, Switzerland).

P. falciparum NF54 = assay: In vitro 3H-hypoxanthine incorporation assay, erythrocytic stages, NF54 strain; assay type: cell-based, Plasmodium falciparum; details: selectivity index, L-6 cells vs P.f. NF54
Protocol: as §1

SMILES: C[C@@H]1CC[C@H]2[C@@H](C)C(=O)O[C@@H]3O[C@@]4(C)CC[C@@H]1[C@]32OO4 [ART, artemisinin, reference compound]
- S.I. = IC50 (Cyt.)/IC50 (P.f. K1) (P. falciparum K1): 70390

SMILES: CCOc1ccc(-c2nonc2NC(=O)c2ccccc2)cc1OCC [Compound 10, N-(4-(3,4-Diethoxyphenyl)-1,2,5-oxadiazol-3-yl)benzamide]
- S.I. = IC50 (Cyt.)/IC50 (P.f. NF54) (P. falciparum NF54): 1463
- S.I. = IC50 (Cyt.)/IC50 (P.f. K1) (P. falciparum K1): 1222

SMILES: CCOc1ccc(-c2nonc2NC(=O)c2cccc(C(F)(F)F)c2)cc1OCC [Compound 13, N-(4-(3,4-Diethoxyphenyl)-1,2,5-oxadiazol-3-yl)-3-(trifluoromethyl)benzamide]
- S.I. = IC50 (Cyt.)/IC50 (P.f. NF54) (P. falciparum NF54): 524.6
- S.I. = IC50 (Cyt.)/IC50 (P.f. K1) (P. falciparum K1): 1424

SMILES: CCOc1ccc(-c2nonc2NC(=O)c2cccc(F)c2)cc1OCC [Compound 14, N-(4-(3,4-Diethoxyphenyl)-1,2,5-oxadiazol-3-yl)-3-fluorobenzamide]
- S.I. = IC50 (Cyt.)/IC50 (P.f. NF54) (P. falciparum NF54): 838.6
- S.I. = IC50 (Cyt.)/IC50 (P.f. K1) (P. falciparum K1): 380.5

SMILES: CCOc1ccc(-c2nonc2NC(=O)c2ccc(OC)c(Cl)c2)cc1OCC [Compound 16, 3-Chloro-N-(4-(3,4-diethoxyphenyl)-1,2,5-oxadiazol-3-yl)-4-methoxybenzamide]
- S.I. = IC50 (Cyt.)/IC50 (P.f. NF54) (P. falciparum NF54): 1431

SMILES: CCOc1ccc(-c2nonc2NC(=O)c2ccc(OC)c(F)c2)cc1OCC [Compound 17, N-(4-(3,4-Diethoxyphenyl)-1,2,5-oxadiazol-3-yl)-3-fluoro-4-methoxybenzamide]
- S.I. = IC50 (Cyt.)/IC50 (P.f. NF54) (P. falciparum NF54): 209.8

SMILES: CCOc1ccc(-c2nonc2NC(=O)c2ccc(CN3CCCC3)cc2)cc1OCC [Compound 26, N-(4-(3,4-Diethoxyphenyl)-1,2,5-oxadiazol-3-yl)-4-((pyrrolidin-1-yl)methyl)benzamide]
- S.I. = IC50 (Cyt.)/IC50 (P.f. NF54) (P. falciparum NF54): 25.07
- S.I. = IC50 (Cyt.)/IC50 (P.f. K1) (P. falciparum K1): 54.25

SMILES: CCOc1ccc(-c2nonc2NC(=O)c2ccc(CN3CCOCC3)cc2)cc1OCC [Compound 27, N-(4-(3,4-Diethoxyphenyl)-1,2,5-oxadiazol-3-yl)-4-((morpholin-4-yl)methyl)benzamide]
- S.I. = IC50 (Cyt.)/IC50 (P.f. NF54) (P. falciparum NF54): 172.7
- S.I. = IC50 (Cyt.)/IC50 (P.f. K1) (P. falciparum K1): 199.7

SMILES: CCOc1ccc(-c2nonc2NC(=O)c2cccc(CN3CCCC3)c2)cc1OCC [Compound 28, N-(4-(3,4-Diethoxyphenyl)-1,2,5-oxadiazol-3-yl)-3-((pyrrolidin-1-yl)methyl)benzamide]
- S.I. = IC50 (Cyt.)/IC50 (P.f. NF54) (P. falciparum NF54): 402.2

SMILES: CCOc1ccc(-c2nonc2NC(=O)c2cccc(CN3CCOCC3)c2)cc1OCC [Compound 29, N-(4-(3,4-Diethoxyphenyl)-1,2,5-oxadiazol-3-yl)-3-((morpholin-4-yl)methyl)benzamide]
- S.I. = IC50 (Cyt.)/IC50 (P.f. NF54) (P. falciparum NF54): 146.0

SMILES: CCOc1ccc(-c2nonc2NC(=O)CN2CCCC2)cc1OCC [Compound 31, N-(4-(3,4-Diethoxyphenyl)-1,2,5-oxadiazol-3-yl)-2-(pyrrolidin-1-yl)acetamide]
- S.I. = IC50 (Cyt.)/IC50 (P.f. NF54) (P. falciparum NF54): 33.46
- S.I. = IC50 (Cyt.)/IC50 (P.f. K1) (P. falciparum K1): 48.25

SMILES: CCOc1ccc(-c2nonc2NC(=O)CN2CCOCC2)cc1OCC [Compound 32, N-(4-(3,4-Diethoxyphenyl)-1,2,5-oxadiazol-3-yl)-2-(morpholin-4-yl)acetamide]
- S.I. = IC50 (Cyt.)/IC50 (P.f. NF54) (P. falciparum NF54): 10.95
- S.I. = IC50 (Cyt.)/IC50 (P.f. K1) (P. falciparum K1): 13.61

SMILES: CCOc1ccc(-c2nonc2NC(=O)CCN2CCCC2)cc1OCC [Compound 34, N-(4-(3,4-Diethoxyphenyl)-1,2,5-oxadiazol-3-yl)-3-(pyrrolidin-1-yl)propanamide]
- S.I. = IC50 (Cyt.)/IC50 (P.f. NF54) (P. falciparum NF54): 2.50
- S.I. = IC50 (Cyt.)/IC50 (P.f. K1) (P. falciparum K1): 58.09

SMILES: CCOc1ccc(-c2nonc2NC(=O)CCN2CCOCC2)cc1OCC [Compound 35, N-(4-(3,4-Diethoxyphenyl)-1,2,5-oxadiazol-3-yl)-3-(morpholin-4-yl)propanamide]
- S.I. = IC50 (Cyt.)/IC50 (P.f. NF54) (P. falciparum NF54): 4.88
- S.I. = IC50 (Cyt.)/IC50 (P.f. K1) (P. falciparum K1): 7.76

SMILES: Cc1cccc(C(=O)Nc2nonc2-c2ccccc2)c1 [Compound 39, 3-Methyl-N-(4-phenyl-1,2,5-oxadiazol-3-yl)benzamide]
- S.I. = IC50 (Cyt.)/IC50 (P.f. NF54) (P. falciparum NF54): 3.07
- S.I. = IC50 (Cyt.)/IC50 (P.f. K1) (P. falciparum K1): 1.65

Reference: article PMC8145535, “New Acyl Derivatives of 3-Aminofurazanes and Their Antiplasmodial Activities” (Pharmaceuticals, 2021)
